From PMC8539749 (Viruses, 2021) come the findings set out here.

The structures appear in SMILES notation.

For this data set, the system named is Huh-7 cells. The data set is described as follows: Cytotoxicity, Cell-Titer-Glo luminescent assay. As to conditions: CellTiter-Glo.

Regarding `N=C(N)NCCC[C@@H]1NC(=O)[C@@H](NC(=O)[C@@H](N)CCCCN)CCCCNC(=O)[C@H](CO)NC(=O)CNC(=O)[C@H](Cc2ccccc2)NC(=O)CNC1=O` [HKU-P1], the “cytotoxicity (in words)” value (1000 μg/mL) is “negligible cytotoxicity”. Besides, where the note is “higher concentration impracticable to test (stock 10 mg/mL)”, the CC50 result is “above 1000 μg/mL”.
